Measurements published in US20260102351A1, “LYOPHILIZED FORMULATION OF CROFELEMER AND METHODS OF TREATMENT USING THE SAME” (priority 2022, published 2026).

Assay: Sweetener studies (high intensity sweetener excipients)
Settings: 100 mg/mL crofelemer solution

OC[C@H]1O[C@H](O[C@]2(CCl)O[C@H](CCl)[C@@H](O)[C@@H]2O)[C@H](O)[C@@H](O)[C@H]1Cl [Sucralose]
Usage found to overcome the intensity of bitterness of crofelemer: 10 to 15 mg/mL
